According to PMC6438201:

What was measured:
[1] = biological target: melittin (Apis mellifera) (UniProt P01501); conditions: cited from earlier work
[2] = biological target: melittin (Apis mellifera) (UniProt P01501)

calmodulin (from UniProt P0DP23)
Kd [1]: 3 nM
Kd [2]: 4.6 nM

Where two headings read alike, the source gives them in different places.
